In patent US9198845B2, “Glutamine derivatives as deodorants” (Givaudan S.A., priority 2010, dated 2015):

System: Corynebacterium Ax 20
Experiment: Cleavage of the synthetic compound by the bacterial enzymes (release of 2-ethyl-hexanol or 2-ethyl-hexylamine)
Type: cell-based, Corynebacterium glaucum
Details: for cleavage by the bacteria: conclusion from the data in Table 2; for Release of 2-ethyl-hexanol or 2-ethyl-hexylamine: 2-ethyl-hexylamine for Ia, 2-ethyl-hexanol for II, b.d. = below detection limit
[1] = preincubation 0.5 h, 10 ppm test compound
[2] = preincubation 0.5 h, 100 ppm test compound
[3] = preincubation 0.5 h, 500 ppm test compound
[4] = preincubation 0.5 h, 1000 ppm test compound
[5] = preincubation 4 h, 10 ppm test compound
[6] = preincubation 4 h, 100 ppm test compound
[7] = preincubation 4 h, 500 ppm test compound
[8] = preincubation 4 h, 1000 ppm test compound
[9] = preincubation 8 h, 10 ppm test compound
[10] = preincubation 8 h, 100 ppm test compound
[11] = preincubation 8 h, 500 ppm test compound
[12] = preincubation 8 h, 1000 ppm test compound
[13] = preincubation 24 h, 10 ppm test compound
[14] = preincubation 24 h, 100 ppm test compound
[15] = preincubation 24 h, 500 ppm test compound
[16] = preincubation 24 h, 1000 ppm test compound

CCCCC(CC)COC(=O)N[C@@H](CCC(N)=O)C(=O)O (stereo partly shown) [Compound II, reference compound]
cleavage by the bacteria: cleaved by the bacteria | Release of 2-ethyl-hexanol or 2-ethyl-hexylamine [1]: 3.9 ppm | Release of 2-ethyl-hexanol or 2-ethyl-hexylamine [2]: 26.6 ppm | Release of 2-ethyl-hexanol or 2-ethyl-hexylamine [3]: 55.6 ppm | Release of 2-ethyl-hexanol or 2-ethyl-hexylamine [4]: 78.3 ppm | Release of 2-ethyl-hexanol or 2-ethyl-hexylamine [5]: 3.1 ppm | Release of 2-ethyl-hexanol or 2-ethyl-hexylamine [6]: 29.8 ppm | Release of 2-ethyl-hexanol or 2-ethyl-hexylamine [7]: 115.2 ppm | Release of 2-ethyl-hexanol or 2-ethyl-hexylamine [8]: 177.3 ppm | Release of 2-ethyl-hexanol or 2-ethyl-hexylamine [9]: 3.1 ppm | Release of 2-ethyl-hexanol or 2-ethyl-hexylamine [10]: 27.6 ppm | Release of 2-ethyl-hexanol or 2-ethyl-hexylamine [11]: 152.3 ppm | Release of 2-ethyl-hexanol or 2-ethyl-hexylamine [12]: 288.2 ppm | Release of 2-ethyl-hexanol or 2-ethyl-hexylamine [13]: 2.3 ppm | Release of 2-ethyl-hexanol or 2-ethyl-hexylamine [14]: 17.5 ppm | Release of 2-ethyl-hexanol or 2-ethyl-hexylamine [15]: 89.5 ppm | Release of 2-ethyl-hexanol or 2-ethyl-hexylamine [16]: 176.0 ppm

CCCCC(CC)CNC(=O)N[C@@H](CCC(N)=O)C(=O)O (stereo partly drawn) [Compound Ia, N2-[(2-ethylhexylamino)carbonyl]-L-glutamine]
cleavage by the bacteria: stable | Release of 2-ethyl-hexanol or 2-ethyl-hexylamine [1]: b.d. | Release of 2-ethyl-hexanol or 2-ethyl-hexylamine [2]: b.d. | Release of 2-ethyl-hexanol or 2-ethyl-hexylamine [3]: b.d. | Release of 2-ethyl-hexanol or 2-ethyl-hexylamine [4]: b.d. | Release of 2-ethyl-hexanol or 2-ethyl-hexylamine [5]: b.d. | Release of 2-ethyl-hexanol or 2-ethyl-hexylamine [6]: b.d. | Release of 2-ethyl-hexanol or 2-ethyl-hexylamine [7]: b.d. | Release of 2-ethyl-hexanol or 2-ethyl-hexylamine [8]: b.d. | Release of 2-ethyl-hexanol or 2-ethyl-hexylamine [9]: b.d. | Release of 2-ethyl-hexanol or 2-ethyl-hexylamine [10]: b.d. | Release of 2-ethyl-hexanol or 2-ethyl-hexylamine [11]: b.d. | Release of 2-ethyl-hexanol or 2-ethyl-hexylamine [12]: b.d. | Release of 2-ethyl-hexanol or 2-ethyl-hexylamine [13]: b.d. | Release of 2-ethyl-hexanol or 2-ethyl-hexylamine [14]: b.d. | Release of 2-ethyl-hexanol or 2-ethyl-hexylamine [15]: b.d. | Release of 2-ethyl-hexanol or 2-ethyl-hexylamine [16]: b.d.
